PubChem BioAssay AID624099 | ICCB-Longwood – 2012

- Purpose: 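Host factors E2 relies on to silence an HPV18 LCR reporter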 (primary screen)
- System: human C33A cervical carcinoma cells (HPV-negative) stably expressing BPV1 E2 and an HPV18 LCR luciferase reporter
- Reagent: siRNA pool against human genes, 40 nM
- Timing: 72 h
- Measurement: 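HPV18 LCR reporter light per well, converted to plate-wise z-scores that exclude control wells, and averaged over triplicate plates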
- Reading the numbers: mean z-score and z-score: higher = stronger reporter signal, weaker E2 silencing
- Hit rule: 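Mean z ≥ 2 together with z ≥ 2 in two or more of the three replicates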
The deposit covers about 21,000 reagents; shown is a part drawn at random. Of all reagents, 497 (2.4%) were called active. 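Higher z means weaker E2 silencing; only reporter increases were scored, and knock-downs that hurt cell survival may mask genuine repressor factors.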 Unmarked entries are inactive.

Gene	mean z-score	z-score, replicate A	z-score, replicate B	z-score, replicate C
LOC402604 (retired record)	0.31	0.17	0.31	0.43
SH3BP5L	-0.79	-0.74	-0.68	-0.96
TAF9B	1.61	1.4	1.8	1.63
ZFY	1.73	1.71	1.3	2.18
CAMK1G	-0.26	-0.69	0.05	-0.13
INO80C	-0.58	-0.45	-0.49	-0.82
TRIT1	-1.05	-0.96	-0.99	-1.19
LOC401132 (retired record)	-1.25	-0.72	-1.52	-1.52
APOBEC3D	-0.02	0.13	0.08	-0.25
NAA20	0.24	-0.01	0.18	0.56
MS4A6A	-0.89	-1.06	-0.88	-0.73
SLC8A3	-0.38	-0.05	-0.56	-0.53
B4GALNT1	0.48	0.2	0.64	0.6
PCDHA4	0.79	0.48	0.77	1.12
STRN	1.56	1.63	1.58	1.46
NPAS1	-0.63	-0.47	-0.78	-0.64
SNRNP40	-0.63	-0.62	-0.5	-0.76
SIRAL2	0.4	1.17	0.39	-0.37
S100A14	1.62	1.76	1.64	1.47
LYPD5	-0.52	-0.72	-0.33	-0.52
DNAAF19	0.21	0	0.68	-0.05
PCDHB14	0.74	0.71	0.97	0.55
DOC2A	1.22	1.37	0.95	1.36
PPP3CC	0.03	-0.02	-0.04	0.16
TRAPPC10	-0.28	0.01	-0.42	-0.41
LOC387887 (retired record)	0.61	0.41	0.74	0.68
ASNSP1	-1.2	-1.21	-1.07	-1.32
CLSTN2	0.01	-0.8	0.51	0.32
TPM4	0.16	-0.13	0.2	0.42
RHOU	-1.13	-0.97	-1.24	-1.19
CENPO	-0.11	0.12	-0.26	-0.18
OSR2	0.01	-0.09	0.3	-0.16
LOC401051 (retired record)	-0.72	-0.46	-1.33	-0.37
FBXO39	0.75	0.26	0.77	1.21
MTR	-1.22	-1.14	-1.19	-1.34
LOC342934 (retired record)	-0.34	-0.54	-0.25	-0.23
PGM3	-1.15	-1.19	-0.89	-1.37
RPL23A	-2.31	-2.24	-2.47	-2.23
RHOT2	-0.55	-0.74	-0.61	-0.31
PLA2G4A	0.06	-0.26	0	0.43
SEMA4G	-0.02	0.13	0.1	-0.28
LOC202546 (retired record)	-0.01	0.34	0.18	-0.54
MOB1B	1.53	1.77	1.7	1.12
RALA	-0.15	0.05	-0.4	-0.09
RASSF9	2.04 (active)	2.01	2.19	1.91
ZNF626	1.52	1.71	1.75	1.11
LINC00839	-0.07	-0.06	-0.26	0.1
LOC390569 (retired record)	3.46 (active)	3.27	2.66	4.46
PAM16	0.26	0	0.19	0.6
GPATCH3	0.04	0.21	-0.2	0.1
MAD2L2	-0.02	0.34	-0.41	0.02
OR8B8	0.53	0.36	0.54	0.69
ANO10	-0.91	-0.69	-0.98	-1.06
ATP2B1-AS1	0.29	0.18	0.46	0.23
CTBS	2	1.61	2.17	2.21
UTS2R	-0.84	-0.76	-0.61	-1.16
LOC401357	0.77	0.57	0.89	0.84

Single entries from the list:
For “z-score, replicate A”, LOC402604 (retired record) reads 0.17
Value of PPP3CC under “mean z-score”: 0.03
For “z-score, replicate B”, APOBEC3D is entered as 0.08
ZFY, z-score, replicate C → 2.18
Value for CLSTN2 under “mean z-score”: 0.01
Entry of SH3BP5L in “mean z-score”: -0.79
